# Laboratory results reported in patent publication US20050048563A1, “Membrane molecule indicator compositions and methods” (Novasite Pharmaceuticals, Inc, priority 2000, published 2005).
# Tested on: PLC
# Settings: 5 μM PAO pretreatment for 10 minutes, BK 1 μM
compound,measurement,value
O=[As]c1ccccc1 (stereo not shown),BK-induced translocation of PLCδ1PH-GFP to the cytosol in PAO-treated cells,sustained translocation
